SMILES strings stand for the structures.

In this experiment the test system is HT-29 cells. Nature of the experiment: WST-1 cell growth/viability assay, HT-29. In kind it is cell-based, human. As for the experimental part:
Indicated concentrations of drugs were added to wells one day after seeding. […] Cell proliferation was quantitated by measuring 450 nm absorbance and 600 nm as a background. All assays were performed in triplicate. […] The minimal combination index […] for each cell line was obtained from the isobologram parameters.
In general terms: Tetrazolium dyes change colour on reduction, which living cells bring about.

For `O=c1[nH]c(=O)n([C@H]2C[C@H](O)[C@@H](CO)O2)cc1F` [5-FUdR, 5-fluoro-2′-deoxyuridine], the “concentration required to synergistically inhibit cell proliferation and viability with hmUdR” value was 5 nM.
